According to US6555733B2, “Genes coding for amino acid deacetylases with specificity for N-acetyl-L-phosphinothricin, their isolation and use” (priority 1996, dated 2003):

Test system: N-acetyl-PPT deacetylase (Deac1 protein)
Assay: Radioactive test of purified N-acetyl-PPT deacetylase (Deac1) with [14C]-N-acetyl-L-PPT, HPLC
Format: biochemical, Stenotrophomonas sp.

B1: N-acetyl-PPT deacetylase: deacetylase from Stenotrophomonas sp., 454 amino acids (SEQ ID NO:2), purified from E. coli as GST fusion cleavage product (protein)
chain: MIRKTVLLTALSCALASATATAAEGQRPEVEAAAARLQRQVVEWRRDFHQHPELSNREVRTAAKVAERLRAMGLQPQTGVAVHGVVAIIKGALPGPKIALRADMDALPVTEQTGLPFASTATAEYRGEKVGVMHACGHDAHTATLLGVADALVAMRDTLPGEVMLIFQPAEEGAPPPEQGGAELMLKEGLFKEFKPEAVFGLHVFSSVQAGQIAVRGGPLMAASDRFAITVNGRQTHGSAPWNGIDPIVAASDLIGTAQTIVSRRANLSKQPAVLTFGAIKGGIRYNIIPDSVEMVGTIRTFDPDMRKQIFADLRNVAEHTAAAHGATATTDIYEKDGNPATVNDPALTARMLPSLQAVVGKDNVYEPPLQMGSEDFSLYAQQVPAMFFFVGSTGAGIDPATAPSNHSPKFLLDEKALDVGLRALLQVSLDYLHGGKAG
modifications: Stenotrophomonas sp
Tested 28-60 °C
  temperature optimum: 37 °C
Tested between pH=6 and 9
  pH optimum: 8
